Measurements reported in the supplement of paper PMC9931576.
Human monoclonal antibodies against the spike receptor-binding domain (heavy:light variable regions). IC50 against pseudoviruses bearing the spike of naturally observed variants; lower = stronger; >10 µg/ml means not reached at the top dose. No active / inactive call. The stated detection limit is 0.0005 µg/ml; values near or below 0.001 µg/ml lie at the floor of the assay.

B1: BD55-1339 (protein)
chain 1: QVQLVQSGAEVKKPGASVKVSCKASGYSFSNHYINWVRQAPGQGLEWMGIINPSGGSTTYAQKFQGRVIMTRDTSTSTVYMELRSLRSDDTAVYFCARDRRYLDWYPSNYFDLWGQGTLVTVSS
chain 2: DIQMTQSPSSLSASVGDRVTLTCRASQNIDNWLAWYQQKPGKAPKLLIYAASTLETGVPSRFSGSGSGTDFTLTISSLQPEDFATYYCQHADSFPPFGGGTKVEIR
B2: BD55-6724 (protein)
chain 1: QVQLVQSGAEVKKPGASVKVSCKASGYTFSNYYIHWVRQAPGQGLEWMGIINPSGGRASYAQKFQDRVTMTRDTSTSTVYMGLSSLRSEDTAVYYCARDFVRIGVATFPDYFDYWGQGTLVTVSS
chain 2: DIQLTQSPSSLSASVGDRVTITCRASQYMNNYLNWYQQKPGKAPKLLIYAASSLQSGVPSRFSGSGSGTDFTLTISSLQPEDFATYYCQQSYITPPYTFGQGTRLEIK
B3: BD55-6727 (protein)
chain 1: QVQLVESGGGLVKPGGSLRLSCAASGFTFSDYYMNWIRQAPGKGLEWLSYISSGGGTISYADSVKGRFTISRDNAKNSLYLQMNSLGAEDTAVYYCASDPGGLSELAAEYFHHWGQGTLVTVSS
chain 2: DIQMTQSPSSLSASVGDRVTITCRASQSISNYLNWYQQKPGKAPKLLIYAASSLQSGVPSRFSGSGSETDFTLTISSLQSEDFATYYCQQSHSTPYTFGQGSKLEIK
B4: BD55-6729 (protein)
chain 1: QVQLVQSGAEVKKPGTSMRVSCKASGYTFSTYGIIWVRQAPGQGLEWMGWISPHNGDPNYAQKFQGRVTMTIDTSTTTASLEVRSLRSDDSAVYFCARQLLFFGDLSGDNGMDVWGQGTAVTVS
chain 2: SYELTQPPSVSVSPGQTARITCSGDAVATQFLYWYQQKSGQAPVMVIYKDTKRPSGIPERFSATRSGKTVSLIISGVQAEDEADYYCQSADSRGVVFGGGTKLTVL
B5: BD55-1332 (protein)
chain 1: QVQLVQSGAEVKKPGASMKVSCKASGYTFTHYYIHWVRQAPGQGLEWMGIINPDGGSTTYAQKFQGRVTMTTDTSTSTVYMDLSSLRSDDTAVYYCARGGSPPHVRGAMDVWGQGTTVTVSS
chain 2: DIQMTQSPSSLSASVGDRVTITCRASQSVNRNLNWYQQKPGRAPKLLIYAASSLENGVPSRFSGSGSGTDFTLTISSLQPEDFATYYCQQSYSISMHTFGQGTKLEIK
B6: BD55-1334 (protein)
chain 1: QVQLVESGGDLVKPGGSLRLSCATSGFTFSDYFVSWFRQAPGKGLEWISYIGHSGGSIFYADSVKGRFTISRDNAKNSLYLQMNSLRAEDTAVYYCARGDTYSYDTTGYSYWGQGTLVTVSS
chain 2: QSALTQPPSASGSPGQSVTISCTGTSSDVGAYNYVSWYQQHPGKVPKLIMYEVTKRPSGVPDRFSGSKSGNTASLTVSGLQAEDEADYYCSSHAGSNNYVLFGGGTKLTVL
B7: BD55-1343 (protein)
chain 1: QVQLQESGPGVVKPSETLSLTCTVSAYSISSGYFWGWIRQPPGKGLEWIGSIYHTGSTYYNPSLKSRVTISLDTSKNQFSLNLSSVTAADTAMYYCVRDTEDGAEYWFDPWGQGTLVTVSS
chain 2: DIQMTQSPSSVSASVGDRVTITCRASQGITSWLAWYQQKPGKAPKLLIYGASSLQSGVPSRFSGSGFGTDFTLTINTLQPEDFATYYCQQAHGFPRTFGQGTKVEIK

Tests used:
Assay in all cases: pseudovirus neutralization IC50; higher = weaker neutralization
[1] = biological target: SARS-CoV-2 Omicron BA.1 spike pseudovirus
Method: (§1)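 Single-round VSV luciferase pseudovirus mixed with antibody dilutions for 1 h and put on Huh-7 cells for about a day; IC50 from the dose curve.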

[2] = biological target: SARS-CoV-2 Omicron BA.2 spike pseudovirus
Method: as §1

[3] = biological target: SARS-CoV-2 Omicron BA.2.75 spike pseudovirus
Method: as §1

[4] = biological target: SARS-CoV-2 Omicron BA.5 spike pseudovirus
Method: as §1

[5] = biological target: SARS-CoV-2 early D614G spike pseudovirus
Method: as §1

[6] = biological target: SARS-CoV-2 Omicron BQ.1.1 spike pseudovirus
Method: as §1

[7] = biological target: SARS-CoV-2 Omicron XBB spike pseudovirus
Method: as §1

Binder | pseudovirus neutralization IC50 [1] [µg/mL] | pseudovirus neutralization IC50 [2] [µg/mL] | pseudovirus neutralization IC50 [3] [µg/mL] | pseudovirus neutralization IC50 [4] [µg/mL] | pseudovirus neutralization IC50 [5] [µg/mL] | pseudovirus neutralization IC50 [6] [µg/mL] | pseudovirus neutralization IC50 [7] [µg/mL]
B1 | 0.0376 | 0.0612 | 0.0324 | 0.0697 | 0.0137 | – | –
B2 | > 10 | > 10 | > 10 | > 10 | > 10 | > 10 | > 10
B3 | 4.37 | > 10 | > 10 | > 10 | 0.293 | > 10 | > 10
B4 | > 10 | > 10 | > 10 | > 10 | > 10 | > 10 | > 10
B5 | > 10 | > 10 | > 10 | > 10 | > 10 | > 10 | > 10
B6 | > 10 | > 10 | > 10 | > 10 | 0.001 | > 10 | > 10
B7 | > 10 | > 10 | > 10 | > 10 | 1.43 | > 10 | > 10
